Results from US7399782B2, “Polyether brevetoxin derivatives as a treatment for cystic fibrosis, mucociliary dysfunction, and pulmonary diseases” (dated 2008).

Columns and labels:
[1] = test system: sodium channels; conditions: cited from earlier work
[2] = test system: conscious sheep; assay: Tracheal mucus velocity (TMV) in conscious sheep

β-Naphthoyl-PbTx-3
antagonism of the native toxin in channel activation ([1]; Purkerson-Parker 2000): effectively antagonizes the actions of the native toxin in channel activation
effect on sodium channel openings ([1]; Purkerson-Parker 2000): reduces sodium channel openings
effect on brevetoxin-induced opening of sodium channels [1]: blocks brevetoxin-induced opening of sodium channels
opening of sodium channels in the steady state ([1]; steady state): does not elicit opening of sodium channels in the steady state
effect on tracheal mucus velocity (TMV) ([2]; FIG. 2, 10 pg dose (n=2), versus control (vehicle)): about the same as control
effect on tracheal mucus velocity (TMV) ([2]; FIG. 2, 100 pg dose (n=4)): rapidly increase TMV
